Assay results reported in patent US11613546B2, “Substituted pyridotriazine compounds and uses thereof” (Gilead Sciences, Inc., priority 2021, dated 2023).

Tested on: pLai RLuc reporter virus
Experiment: HIV MT-4 serum shift antiviral reporter assay
Type: cell-based
Conditions: EC50 (HS/CCM)/EC50 (CCM) fold shift, measure of protein binding
Description: To quantify the amount of protein binding to human serum, compounds were serially diluted (1:3) in DMSO and acoustically transferred onto 384-well assay plates via a Labcyte ECHO robot. Each plate contained up to 8 test compounds, including negative and positive controls, (DMSO, 5 μM AZT respectively). Assay plates were prepared in duplicate, and tested in either CCM (cell culture media) or HS/CCM (human serum/cell culture media). MT-4 cells were first pre-infected with pLai RLuc reporter virus for 2 h at 37° C., then further diluted in either CCM (RPMI media, 10% FBS, 1% P/S) or HS/CCM (RPMI media, 10% FBS, 50% HS, 1% P/S), and subsequently added to each plate using a Biotek Micro Flow dispenser. After a 72-h incubation in a humidified and temperature controlled incubator (37° C.), Renilla Glo (Promega) was added to all assay plates and chemiluminescence read using an Envision plate-reader. EC50 values were defined as the compound concentration that causes a 50% decrease in luminescence signal, and were calculated using a sigmoidal dose-response model to generate curve fits. To determine the amount of protein binding, EC50 fold shifts (or EC50 shifts) were calculated by dividing EC50 (HS/CCM)/EC50 (CCM).

| SMILES | RLUC Shift |
| --- | --- |
| C[C@@H]1C[C@@H](F)[C@@H](F)CN2CN1n1cc(C(=O)NCc3ccc(F)cc3F)c(=O)c(O)c1C2=O (single isomer, unassigned) [Example C38] | 14 |
| O=C(NCc1c(F)cc(F)cc1F)c1cn2c(c(O)c1=O)C(=O)N1Cc3cc(F)ccc3CN2C1 [Example C1, (6R)-10-fluoro-1-hydroxy-2,14-dioxo-N-(2,4,6-trifluorobenzyl)-2,7,12,14-tetrahydro-6,13-methanobenzo[g]pyrido[1,2-b][1,2,5]triazonine-3-carboxamide] | 9 |
| O=C(NCc1c(F)cc(F)cc1F)c1cn2c(c(O)c1=O)C(=O)N1Cc3ccc(F)cc3CN2C1 [Example C2, (6R)-9-fluoro-1-hydroxy-2,14-dioxo-N-(2,4,6-trifluorobenzyl)-2,7,12,14-tetrahydro-6,13-methanobenzo[g]pyrido[1,2-b][1,2,5]triazonine-3-carboxamide] | 17 |
| O=C(NCc1c(F)cc(F)cc1F)c1cn2c(c(O)c1=O)C(=O)N1Cc3cc(F)ccc3CN2C1 [Example C3, (6S)-10-fluoro-1-hydroxy-2,14-dioxo-N-(2,4,6-trifluorobenzyl)-2,7,12,14-tetrahydro-6,13-methanobenzo[g]pyrido[1,2-b][1,2,5]triazonine-3-carboxamide] | 7 |
| O=C(NCc1c(F)cc(F)cc1F)c1cn2c(c(O)c1=O)C(=O)N1Cc3ccc(F)cc3CN2C1 [Example C4, (6S)-9-fluoro-1-hydroxy-2,14-dioxo-N-(2,4,6-trifluorobenzyl)-2,7,12,14-tetrahydro-6,13-methanobenzo[g]pyrido[1,2-b][1,2,5]triazonine-3-carboxamide] | 11 |
| C[C@H]1C=CCN2CN1C(=O)c1c(O)c(=O)c(C(=O)NCc3c(F)cc(F)cc3F)cn12 [Example C5, (10S)-6-hydroxy-10-methyl-5,8-dioxo-N-[(2,4,6-trifluorophenyl)methyl]-1,2,9-triazatricyclo[7.4.1.02,7]tetradeca-3,6,11-triene-4-carboxamide] | 96 |
| O=C(NCc1c(F)cc(F)cc1F)c1cn2c(c(O)c1=O)C(=O)N1CCCCN2C1Cc1ccccc1 (stereo not drawn) [Example C6, 13-benzyl-8-hydroxy-7,9-dioxo-N-(2,4,6-trifluorobenzyl)-2,3,4,5,7,9-hexahydro-1,6-methanopyrido[1,2-b][1,2,5]triazonine-10-carboxamide] | 7 |
| C[C@@H]1C/C=C\[C@H](C)N2CN1n1cc(C(=O)NCc3c(F)cc(F)cc3F)c(=O)c(O)c1C2=O [Example C7, (1S,2R,6S,Z)-9-hydroxy-2,6-dimethyl-8,10-dioxo-N-(2,4,6-trifluorobenzyl)-3,6,8,10-tetrahydro-2H-1,7-methanopyrido[1,2-b][1,2,5]triazecine-11-carboxamide] | 485 |
| C[C@@H]1CCC[C@H](C)N2CN1n1cc(C(=O)NCc3c(F)cc(F)cc3F)c(=O)c(O)c1C2=O [Example C8, (1S,2R,6S)-9-hydroxy-2,6-dimethyl-8,10-dioxo-N-(2,4,6-trifluorobenzyl)-3,4,5,6,8,10-hexahydro-2H-1,7-methanopyrido[1,2-b][1,2,5]triazecine-11-carboxamide] | 30 |
| C[C@@H]1C/C=C\CN2CN1n1cc(C(=O)NCc3ccc(F)cc3F)c(=O)c(O)c1C2=O [Example C10, (1R,2R,Z)—N-(2,4-difluorobenzyl)-9-hydroxy-2-methyl-8,10-dioxo-3,6,8,10-tetrahydro-2H-1,7-methanopyrido[1,2-b][1,2,5]triazecine-11-carboxamide] | 854 |
| C[C@@H]1C/C=C\CN2CN1n1cc(C(=O)NCc3ccc(F)cc3F)c(=O)c(O)c1C2=O [Example C11, (1S,2R,Z)—N-(2,4-difluorobenzyl)-9-hydroxy-2-methyl-8,10-dioxo-3,6,8,10-tetrahydro-2H-1,7-methanopyrido[1,2-b][1,2,5]triazecine-11-carboxamide] | 27 |
| C[C@@H]1C/C=C\[C@H](C)N2CN1n1cc(C(=O)NCc3c(F)cc(F)cc3F)c(=O)c(O)c1C2=O [Example C12, (1R,2S,6R,Z)-9-hydroxy-2,6-dimethyl-8,10-dioxo-N-(2,4,6-trifluorobenzyl)-3,6,8,10-tetrahydro-2H-1,7-methanopyrido[1,2-b][1,2,5]triazecine-11-carboxamide] | 356 |
| C[C@@H]1CCCCN2CN1n1cc(C(=O)NCc3ccc(F)cc3F)c(=O)c(O)c1C2=O [Example C13, (1S,2R)—N-(2,4-difluorobenzyl)-9-hydroxy-2-methyl-8,10-dioxo-3,4,5,6,8,10-hexahydro-2H-1,7-methanopyrido[1,2-b][1,2,5]triazecine-11-carboxamide] | 16 |
| C[C@@H]1CCC[C@H](C)N2CN1n1cc(C(=O)NCc3c(F)cc(F)cc3F)c(=O)c(O)c1C2=O [Example C14, (1R,2S,6R)-9-hydroxy-2,6-dimethyl-8,10-dioxo-N-(2,4,6-trifluorobenzyl)-3,4,5,6,8,10-hexahydro-2H-1,7-methanopyrido[1,2-b][1,2,5]triazecine-11-carboxamide] | 44 |
| C[C@@H]1CCCCN2CN1n1cc(C(=O)NCc3c(F)cc(F)cc3F)c(=O)c(O)c1C2=O [Example C17, (1S,2R)-9-hydroxy-2-methyl-8,10-dioxo-N-(2,4,6-trifluorobenzyl)-3,4,5,6,8,10-hexahydro-2H-1,7-methanopyrido[1,2-b][1,2,5]triazecine-11-carboxamide] | 44 |
| C[C@H]1/C=C\C[C@H](C)N2CN1C(=O)c1c(O)c(=O)c(C(=O)NCc3c(F)cc(F)cc3F)cn12 [Example C19, (1R,2S,6S,Z)-9-hydroxy-2,6-dimethyl-8,10-dioxo-N-(2,4,6-trifluorobenzyl)-3,6,8,10-tetrahydro-2H-1,7-methanopyrido[1,2-b][1,2,5]triazecine-11-carboxamide] | 148 |
| C[C@@H]1CCC[C@H](C)N2CN1n1cc(C(=O)NCc3c(F)cc(F)cc3F)c(=O)c(O)c1C2=O [Example C21, (1R,2S,6S)-9-hydroxy-2,6-dimethyl-8,10-dioxo-N-(2,4,6-trifluorobenzyl)-3,4,5,6,8,10-hexahydro-2H-1,7-methanopyrido[1,2-b][1,2,5]triazecine-11-carboxamide] | 425 |
| C[C@H]1CCC[C@H](C)N2CN1C(=O)c1c(O)c(=O)c(C(=O)NCc3c(F)cc(F)cc3F)cn12 [Example C23, (1S,2S,6S)-9-hydroxy-2,6-dimethyl-8,10-dioxo-N-(2,4,6-trifluorobenzyl)-3,4,5,6,8,10-hexahydro-2H-1,7-methanopyrido[1,2-b][1,2,5]triazecine-11-carboxamide] | 51 |
| C[C@@H]1C=C[C@H](C)N2CN1n1cc(C(=O)NCc3c(F)cc(F)cc3F)c(=O)c(O)c1C2=O [Example C24, (1S,2R,5S)-8-hydroxy-2,5-dimethyl-7,9-dioxo-N-(2,4,6-trifluorobenzyl)-2,5,7,9-tetrahydro-1,6-methanopyrido[1,2-b][1,2,5]triazonine-10-carboxamide] | 747 |
| C[C@H]1C=C[C@H](C)N2CN1C(=O)c1c(O)c(=O)c(C(=O)NCc3c(F)cc(F)cc3F)cn12 [Example C25, (1S,2S,5S)-8-hydroxy-2,5-dimethyl-7,9-dioxo-N-(2,4,6-trifluorobenzyl)-2,5,7,9-tetrahydro-1,6-methanopyrido[1,2-b][1,2,5]triazonine-10-carboxamide] | 147 |
| C[C@H]1CC[C@H](C)N2CN1C(=O)c1c(O)c(=O)c(C(=O)NCc3c(F)cc(F)cc3F)cn12 [Example C27, (1S,2R,5S)-8-hydroxy-2,5-dimethyl-7,9-dioxo-N-(2,4,6-trifluorobenzyl)-2,3,4,5,7,9-hexahydro-1,6-methanopyrido[1,2-b][1,2,5]triazonine-10-carboxamide] | 1072 |
| C[C@@H]1C=C[C@H](C)N2CN1n1cc(C(=O)NCc3ccc(F)cc3F)c(=O)c(O)c1C2=O [Example C29, (1S,2R,5S)—N-(2,4-difluorobenzyl)-8-hydroxy-2,5-dimethyl-7,9-dioxo-2,5,7,9-tetrahydro-1,6-methanopyrido[1,2-b][1,2,5]triazonine-10-carboxamide] | 543 |
| C[C@H]1C=C[C@H](C)N2CN1C(=O)c1c(O)c(=O)c(C(=O)NCc3ccc(F)cc3F)cn12 [Example C30, (1S,2S,5S)-8-hydroxy-2,5-dimethyl-7,9-dioxo-N-(2,4-difluorobenzyl)-2,5,7,9-tetrahydro-1,6-methanopyrido[1,2-b][1,2,5]triazonine-10-carboxamide] | 89 |
| C[C@H]1CC[C@H](C)N2CN1C(=O)c1c(O)c(=O)c(C(=O)NCc3ccc(F)cc3F)cn12 [Example C31, (1S,2S,5S)—N-(2,4-difluorobenzyl)-8-hydroxy-2,5-dimethyl-7,9-dioxo-2,3,4,5,7,9-hexahydro-1,6-methanopyrido[1,2-b][1,2,5]triazonine-10-carboxamide] | 798 |
